Experimental data published in article PMC2797330.

Molecular target: recombinant gp120MN (HIV-1 (isolate MN, clade B))
Test: ELISA; competition: CD4 added to gp120MN captured with D7324, 1 h at room temperature, then antibodies added for 1 h at 37°; antibody binding read, percent inhibition

**Q.** “Recombinant soluble human CD4 (from UniProt P01730 26-396) (receptor)” was tested. Which percent inhibition of MAb 11A8 binding to gp120 at 10 nM sCD4 did it give?
**A.** Its percent inhibition of MAb 11A8 binding to gp120 at 10 nM sCD4 is 50%.

**Q.** And the percent inhibition of MAb b12 binding to gp120 at 10 nM sCD4?
**A.** The percent inhibition of MAb b12 binding to gp120 at 10 nM sCD4 was 95%.
